Pooled drug test results. Numbers come from NIAID ChemDB, via PubChem.

Common to all: cytotoxicity tests; cells: HepG2; endpoint: CC50

CCn is the concentration with n% toxicity to the cells. Two numbers with a dash give a range or band. Conditions beyond the fields shown may differ between rows.

{"smiles": "Cc1cc(NC(=O)c2c(C)c(C(=O)C(=O)NCC(C)(C)O)n(C)c2CC2CC2)ccc1F", "read by": "MTT", "value": "5–30 µM"}
{"smiles": "COc1ccc(-c2ccc3c(NCCCNCc4ccco4)ccnc3c2)cc1", "read by": "fluorescence", "value": "6 µM"}
{"smiles": "[N-]=[N+]=NC[C@H](O)c1ccc2c(c1)CCO2", "value": ">20 µM"}
{"smiles": "COc1cccc(CNCCCNc2ccnc3cc(-c4cc(C(F)(F)F)cc(C(F)(F)F)c4)ccc23)c1O", "read by": "fluorescence", "value": "0.94 µM"}
{"smiles": "CCN(CC)c1nc2c(c(=O)n1C1CCC(C(=O)NC)CC1)C[C@@H](C)N(C(=O)c1ccc(Cl)c(C(F)(F)F)c1)C2", "read by": "luminescence", "value": "18.5 µM"}
{"smiles": "Fc1ccc(Cc2ccc3c(NCCCNCc4ccco4)ccnc3c2)cc1", "read by": "fluorescence", "value": "5.6 µM"}
{"smiles": "CC(C)N(Cc1cccc(OCCCCCC(=O)OC(=O)O)c1)C(=O)c1ccc(-c2cccc3ccccc23)cc1", "value": ">20 µM"}
{"smiles": "Cc1cc(NC(=O)c2c(C)c(C(=O)C(=O)NC3CCC(O)CC3)n(C)c2C2CCCCC2)ccc1F", "read by": "MTT", "value": "5–30 µM"}
{"smiles": "CNC(=O)[C@H]1CC[C@H](n2c(NC(C)C)nc3c(c2=O)C[C@@H](C)N(C(=O)c2ccc(Br)c(C(F)(F)F)c2)C3)C1", "read by": "luminescence", "value": "16.6 µM"}
{"smiles": "C=CCCN(Cc1cc(OC)cc(OC)c1)C(=O)CC(C)=O", "value": ">20 µM"}
{"smiles": "Cc1cc(NC(=O)c2c(C)c(C(=O)C(=O)NC3CCC(S(C)(=O)=O)CC3)n(C)c2-c2ccccn2)ccc1F", "read by": "MTT", "value": ">30 µM"}
{"smiles": "CNC(=O)c1ccc(-n2c([C@H](O)C(C)C)nc3c(c2=O)C[C@@H](C)N(C(=O)c2ccc(Cl)c(C(F)(F)F)c2)C3)cc1", "read by": "luminescence", "value": ">50 µM"}
{"smiles": "CCOC(=O)CCCCCOc1cccc(CN(C(=O)c2ccc(-c3cccc([N+](=O)[O-])c3)cc2)C(C)C)c1", "value": ">20 µM"}
{"smiles": "CNC(=O)c1c(Cl)c(-n2c(CC(C)C)nc3c(c2=O)C[C@@H](C)N(C(=O)c2ccc(Br)c(C(F)(F)F)c2)C3)nn1C", "read by": "luminescence", "value": "30 µM"}
{"smiles": "Cc1cc(NC(=O)c2c(C)c(C(=O)C(=O)N[C@@H]3C[C@@H](C(=O)O)N(C)C3)n(C)c2C)ccc1F", "read by": "MTT", "value": ">30 µM"}
{"smiles": "COc1ccc(F)cc1CNCCCNc1ccnc2cc(Oc3cccc(N(C)C)c3)ccc12", "read by": "fluorescence", "value": "3.3 µM"}
{"smiles": "CCCN(Cc1cccc(OCCCCCC(=O)O)c1)C(=O)c1ccc(-c2ccc3c(c2)OCO3)cc1", "value": ">20 µM"}
{"smiles": "CNC(=O)[C@H]1CCC[C@H](n2c(NC(C)C)nc3c(c2=O)C[C@@H](C)N(C(=O)c2ccc(Cl)c(C(F)(F)F)c2)C3)C1", "read by": "luminescence", "value": "29.6 µM"}
{"smiles": "COc1cccc(CNCCCNc2ccnc3cc(Cc4ccc(F)cc4)ccc23)c1O", "read by": "fluorescence", "value": "4.78 µM"}
{"smiles": "Cc1cc(NC(=O)c2c(C)c(C(=O)C(=O)NC3(C)CC(O)C3)n(C)c2-c2ccccn2)ccc1F", "read by": "MTT", "value": ">30 µM"}
{"smiles": "COc1cc2c(cc1OC)C(C)=NCC2", "value": ">20 µM"}
{"smiles": "CNC(=O)CCn1c(NC(C)C)nc2c(c1=O)C[C@@H](C)N(C(=O)c1ccc(Cl)c(C(F)(F)F)c1)C2", "read by": "luminescence", "value": ">50 µM"}
{"smiles": "Cc1c(C(=O)Nc2cc(Cl)nc(Cl)c2)c(C)n(C)c1C(=O)C(=O)NC1CCC(O)CC1", "read by": "MTT", "value": ">30 µM"}
{"smiles": "C=CCCC(=O)NC[C@H](O)c1ccc2c(c1)OCO2", "value": "<7.5 µM"}

The first 2 rows once more:

smiles,read by,value
Cc1cc(NC(=O)c2c(C)c(C(=O)C(=O)NCC(C)(C)O)n(C)c2CC2CC2)ccc1F,MTT,5–30 µM
COc1ccc(-c2ccc3c(NCCCNCc4ccco4)ccnc3c2)cc1,fluorescence,6 µM